# The list shows a part of the results, in another mix than the full data. Calls of active or inactive are those of the source. Cut-off read from the data, not from the text of the source: active = activity change below about -50%; inconclusive = between about -30% and that limit; inactive = weaker than that.
# Sequences of proteins named here, by UniProt entry; tags and fusion partners are left off.
# UniProt Q9GZU1, whole entry: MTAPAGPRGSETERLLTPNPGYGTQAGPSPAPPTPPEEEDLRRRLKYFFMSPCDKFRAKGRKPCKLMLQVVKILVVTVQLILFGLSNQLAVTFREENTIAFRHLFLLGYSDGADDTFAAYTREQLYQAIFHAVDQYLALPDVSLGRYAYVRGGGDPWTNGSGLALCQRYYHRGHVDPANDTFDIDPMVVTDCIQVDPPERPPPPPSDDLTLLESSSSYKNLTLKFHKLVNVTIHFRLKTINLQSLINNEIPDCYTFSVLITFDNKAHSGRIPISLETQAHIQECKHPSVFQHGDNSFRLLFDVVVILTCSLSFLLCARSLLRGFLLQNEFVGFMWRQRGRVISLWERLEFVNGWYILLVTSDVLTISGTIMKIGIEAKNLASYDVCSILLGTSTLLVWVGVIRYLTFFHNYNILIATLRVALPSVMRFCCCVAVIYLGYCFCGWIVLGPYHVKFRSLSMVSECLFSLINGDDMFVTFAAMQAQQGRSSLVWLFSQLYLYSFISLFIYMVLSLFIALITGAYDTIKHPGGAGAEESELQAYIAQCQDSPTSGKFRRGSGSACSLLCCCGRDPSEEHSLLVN
# Molecular target: Mucolipin-1 (Homo sapiens) (UniProt Q9GZU1)
# Experiment: qHTS for Inhibitors of the Human Mucolipin Transient Receptor Potential 1 (TRPML1);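 note: stimulus is agonist 54-4 at its EC80 concentration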
# Conditions: TRPML1-inducible cells, Ca2+ dye fluorescence, FDSS; hits give low values; inhibition of EC80 agonist-evoked calcium signal
# From the text: Mutations of human Mucolipin transient receptor potential 1 (TRPML1) cause type IV mucolipidosis (ML4), a devastating neurodegenerative disease in young children. […] Currently, there is no treatment for ML4. […] Under physiological conditions, TRPMLs regulate membrane trafficking by transducing information about PI(3,5)P2 levels into changes in juxtaorganellar Ca2+, thereby triggering membrane fusion/fission events in the late endocytic pathways (endolysosomal trafficking). In addition, TRPML1 mediates release of Fe2+ from late endosomes and lysosomes, which is essential for cellular iron metabolism. Thus, impaired ion (Ca2+ and Fe2+) homeostasis underlies lysosomal dysfunction and ML4 phenotypes. In ML4 cells, the problem is twofold. First, defective Ca2+-dependent membrane trafficking due to TRPML1-deficiency causes accumulation of lipids and other bio-materials in the lysosome. The second strike comes from the lysosomal iron overload (due to impairment of TRPML1's Fe2+ conductivity), which converts the accumulated materials into the nondegradable (resistant to lysosomal degradation) lipofuscin (also called aging pigment) in the lysosome. Lipofuscin accumulation dramatically compromises the functions of lysosomes.
# Niemann-Pick type C (NPC) disease is another lysosome storage disease (LSD) with severe neurodegeneration during the childhood. Currently, there is no cure for NPC. […] Thus, TRPML1 is likely to be an essential regulator of lysosome ion homeostasis. We specifically hypothesize that stimulating TRPML1's Fe2+/Ca2+ channel activity in the lysosome using synthetic agonists can alleviate neurodegeneration associated with ML4 or NPC.
# To this end, a high throughput screen was developed in a miniaturized format to screen against the Molecular Libraries Small Molecule Repository (MLSMR) to find small molecules that act either as inhibitors or agonist against the TRPML1 channel.
# NIH Chemical Genomics Center [NCGC]
# NIH Molecular Libraries Probe Centers Network [MLPCN]
# Assay Submitter (PI): Haoxing Xu, University of Michigan Ann Arbor
# TRPML1-DL cells are dissociated from flasks, counted and, brought up to a density of 500,000 cells per mL of media containing a 1X Tet inducer. Using a Multidrop Combi, 3 uL of this cell solution is dispensed to each well of a 1536 TC treated, black, clear bottom hi base plate for a final cell density of 1,500 cells per well. The assay plates are incubated overnight (approximately 16 hours) at 37 degrees C and 5% CO2. Using a Multidrop Combi, 2 uL of ABD Ca8 no wash dye plus quencher is added to each well. The assay plates incubate at room temperature in the dark for 45-90 minutes. The assay plate is read on the FDSS using the following protocol: 10 second baseline read, 23 nL of compounds and controls are added using 1536 pintool, agonist read for 110 seconds, 1 uL EC80 addition (4 uM final 54-4 diluted in media), antagonist read for 110 seconds.
# % is set by controls: 0 for no effect and ±100 for the full control effect.
row,Compound,"activity change, negative = inhibition"
1,COc1ccc(OP(C)(=O)Nc2ccc(SC(F)(F)F)cc2)cc1 (stereo not drawn),inactive: 3.94%
2,O=P1(N(CCCl)CCCl)OCCC2CCCCN21 (stereo not drawn),inactive: 2.62%
3,CCOC(=O)c1ccc(NP(C)(=O)Oc2ccc(F)cc2)cc1 (stereo not drawn),inactive: -10%
4,c1ccc(-c2nn[nH]n2)c(-c2nn[nH]n2)c1,inactive: 23.3%
5,Cc1ccc(NP(=O)(Oc2cccc(C)c2)Oc2cccc(C)c2)nc1,inactive: 1.17%
6,O=C(NC1CCS(=O)(=O)C1)NP(=S)(Oc1ccccc1)Oc1ccccc1 (stereo not drawn),inactive: 0.457%
7,CCNC(=S)/N=C(\N)N[N+](=O)[O-],inactive: 17.1%
8,Cc1ccccc1OP(=O)(Nc1ccccn1)Oc1ccccc1C,inactive: -11%
9,CC(NC(=O)COC(=O)C(O)(c1ccccc1)c1ccccc1)c1ccccc1 (stereo not drawn),inactive: -12.2%
10,CN(C)C(=O)Oc1noc2ccccc12,inactive: 1.29%
11,CCCCCOc1ccc(NP(C)(=O)Oc2ccc(Cl)cc2Cl)cc1 (stereo not drawn),inactive: -16.2%
12,O=c1c2cc([N+](=O)[O-])ccc2[nH]c2c([N+](=O)[O-])cc([N+](=O)[O-])cc12,inactive: 23.3%
13,CP(=O)(Nc1ccccc1)Oc1ccc(F)cc1 (stereo not drawn),inactive: -0.588%
14,O=C(OC1CN2CCC1CC2)c1ccccc1 (stereo not drawn),inactive: -1.28%
15,CCC(=O)N1C2C3N(C(=O)CC)C1C1N(C(=O)CC)C(C(N1C(=O)CC)N3C(=O)CC)N2C(=O)CC,inactive: -9.32%
16,CCN(CC)CCCOC(=O)C(O)(c1ccccc1)C1CCCCC1 (stereo not drawn),inactive: -11%
17,COC(=O)c1cc2c(s1)N=C(c1ccccc1)N(C)P2(=O)N1CCOCC1 (stereo not drawn),inactive: -8.05%
18,Cc1c([N+](=O)[O-])cc([N+](=O)[O-])c(Br)c1[N+](=O)[O-],inactive: 0.914%
19,CC(=O)NC(SC(=S)N(CC(C)C)CC(C)C)C(Cl)(Cl)Cl (stereo not drawn),inactive: 8.22%
20,Cc1ccc(OP(=O)(Nc2ccccn2)Oc2ccc(C)cc2)cc1,inactive: -9.8%
21,CC(C)(C)C(=O)NC(Sc1ccccc1)C(Cl)(Cl)Cl (stereo not drawn),inactive: -11.2%
22,CC(C)c1ccc(OP(C)(=O)Nc2ccc(SC(F)(F)F)cc2)cc1 (stereo not drawn),inactive: -14.1%
23,CCc1cc(O)c([N+](=O)[O-])c(C)c1[N+](=O)[O-],inactive: -5.81%
24,CP(=O)(Nc1ccccc1F)Oc1ccccc1 (stereo not drawn),inactive: 0.96%
25,O=P1(Nc2nc3ccc(Cl)cc3s2)COc2ccccc2O1 (stereo not drawn),inactive: 10.7%

row,Compound,"activity change, negative = inhibition"
1,CCOc1ccc(C2=NCC(CBr)S2)cc1 (stereo not drawn),inactive: -4.02%
2,CC(=O)Nc1ccc([As](=O)(O)O)c(O)c1,inactive: 5.62%
3,CC(=O)Nc1ccc(Oc2c([N+](=O)[O-])cc([N+](=O)[O-])cc2[N+](=O)[O-])cc1,inactive: 3.9%
4,O=C(OCCN1CCN(CCOCc2ccccc2)CC1)C(O)(c1ccccc1)c1ccccc1,inactive: 12.3%
5,Cc1ccccc1CN(C)C(=O)COC(=O)C(O)(c1ccccc1)c1ccccc1,inactive: -3.59%
6,C[C@@H]1C=CCP(=O)(Oc2ccccc2)O1 (stereo partly drawn),inactive: 4.64%
7,C[C@H]1OP(=O)(Oc2ccccc2)C[C@@H]2O[C@@H]21 (stereo partly drawn),inactive: -0.199%
8,N#C/C(=C\c1ccc(N(CCBr)CCBr)cc1)C(N)=O,inactive: 13.4%
9,CC(=O)c1ccc(N2CC2c2ccncc2)cc1 (stereo not drawn),inactive: 26.8%
10,COC(=O)C1(C)COP(=O)(NCc2ccccc2)OC1 (stereo not drawn),inactive: 6.7%
11,c1nnnn1CCn1cnnn1,inactive: 10.9%
12,CCOP(C)(=S)SCC(=O)NC(C)(CC)C(=O)O (stereo not drawn),inactive: 10.2%
13,O=P(Nc1nccs1)(c1ccccc1)c1ccccc1,inactive: -13.8%
14,CC(C)C(=O)NC(Sc1ccccc1)C(Cl)(Cl)Cl (stereo not drawn),inactive: 4.86%
15,CP(=O)(Nc1ccc(SC(F)(F)F)cc1)Oc1ccc(F)cc1 (stereo not drawn),inactive: -7.12%
16,Cc1ccccc1NP(C)(=O)Nc1ccccc1C,inactive: 1.36%
17,CP(=O)(Nc1ccc2c(c1)OCCO2)Oc1ccccc1 (stereo not drawn),inactive: 2.99%
18,COc1ccc(NP(C)(=O)Oc2ccccc2OC)cc1 (stereo not drawn),inactive: 36%
19,O=P(Nc1nc2ccccc2s1)(c1ccccc1)c1ccccc1,inactive: 26.4%
20,CN(C)CCOC(=O)C(O)(c1ccccc1)C1CCCCC1 (stereo not drawn),inactive: 0.48%
21,C[C@H]1OP(=O)(Oc2ccccc2)[C@H](O)[C@H](O)[C@H]1N=[N+]=[N-] (stereo partly drawn),inactive: 12.5%
22,CN(C)C1(CNC(=O)c2ccc(Cl)c(S(N)(=O)=O)c2)CCCCC1,inactive: 2.12%
23,O=P(Nc1ccccn1)(c1ccc(Br)cc1)c1ccc(Br)cc1,inactive: 19%
24,COc1ccc(OP(C)(=O)Nc2cccc(Br)c2)cc1 (stereo not drawn),inactive: 2.43%
25,COc1ccc(N)c([N+](=O)[O-])c1[N+](=O)[O-],inactive: -0.171%

row,Compound,"activity change, negative = inhibition"
1,O=C(OC1CN2CCC1CC2)c1cccc(Cl)c1 (stereo not drawn),inactive: 6.66%
2,Cc1c(C(c2ccc3c(c2)OCO3)c2c(C)n(C)n(-c3ccccc3)c2=O)c(=O)n(-c2ccccc2)n1C.O=[N+]([O-])c1cc([N+](=O)[O-])c(O)c([N+](=O)[O-])c1,inactive: -8.92%
3,Nc1ccc([As](=O)(O)c2ccc([N+](=O)[O-])cc2)cc1,inactive: -3.42%
4,C(Cc1nn[nH]n1)Cc1nn[nH]n1,inactive: 2.17%
5,O=[As](O)(c1ccccc1)c1ccc(O)cc1,inactive: -11.2%
6,Cc1cc(-c2cccc3ccccc23)c(C)cn1.O=[N+]([O-])c1cc([N+](=O)[O-])c(O)c([N+](=O)[O-])c1,inactive: 22.9%
7,CC(=O)NC(SC(=S)N(C)C)C(Cl)(Cl)Cl (stereo not drawn),inactive: 36.1%
8,O=[N+]([O-])c1ccc(OP2(=O)COCCO2)cc1 (stereo not drawn),inactive: 7.18%
9,CP(=O)(OC12CC3CC(CC(C3)C1)C2)OC12CC3CC(CC(C3)C1)C2,inactive: 5.81%
10,CCOC(=O)c1ccc(NP(C)(=O)Oc2ccc(Cl)cc2)cc1 (stereo not drawn),inactive: -6.25%
11,O=C(Nc1cc([As](=O)(O)O)ccc1O)c1ccccc1,inactive: 8.43%
12,O=P1(N(CCCl)CCCl)OCCCS1 (stereo not drawn),inactive: 19.3%
13,Nc1ccc2c(ccc3cccnc32)n1.O=[N+]([O-])c1cc([N+](=O)[O-])c(O)c([N+](=O)[O-])c1,inactive: 19.4%
14,O=C(O)CNc1ccc([As](=O)(O)O)cc1,inactive: -20.7%
15,O=[N+]([O-])c1cccc(NC2=NCC(CBr)S2)c1 (stereo not drawn),inactive: -0.506%
16,COC(=O)C1(C)COP(=O)(Nc2ccccc2)OC1 (stereo not drawn),inactive: 10.9%
17,O=[N+]([O-])c1ncn(CCn2ncnc2[N+](=O)[O-])n1,inactive: 2.77%
18,CC(C)(C)C(=O)NC(Sc1ccncn1)C(Cl)(Cl)Cl (stereo not drawn),inactive: -9.54%
19,CP(=O)(Oc1ccccc1)N1CCOC1=O (stereo not drawn),inactive: 2.99%
20,Cc1ccc(NP(=O)(Oc2ccccc2)Oc2ccccc2)nc1,inactive: -0.564%
21,O=[N+]([O-])c1cc([N+](=O)[O-])c(CCNc2ccccc2)c([N+](=O)[O-])c1,inactive: -0.907%
22,CCc1nc2c(n1)c1c(non1O)c1c2no[n+]1[O-],inactive: -16.8%
23,CCc1ccc(OP(C)(=O)Nc2cccnc2)cc1 (stereo not drawn),inactive: -10.7%
24,COc1ccccc1OP(C)(=O)Nc1c(C)n(C)n(-c2ccccc2)c1=O (stereo not drawn),inactive: 4.08%
25,CC(=O)N1C2C3N(C(C)=O)C1C1N(C(C)=O)C(C(N1C(C)=O)N3C(C)=O)N2C(C)=O,inactive: 7.35%

row,Compound,"activity change, negative = inhibition"
1,O=[N+]([O-])c1cccc2n[nH]nc12,inactive: -1.59%
2,O=C(OCCCN1CCCC1)C(O)(c1ccccc1)C1CCCCC1 (stereo not drawn),inactive: 11.1%
3,CCN(CC)CC(O)COC(=O)C(O)(c1ccccc1)C1CCCCC1 (stereo not drawn),inactive: -9.32%
4,COc1ccc(OP(C)(=O)Nc2ccc(Br)cc2)cc1 (stereo not drawn),inactive: 4.17%
5,c1cc(-c2nn[nH]n2)ccc1-c1nn[nH]n1,inactive: -8.36%
6,CC1CCN(C(=O)Oc2c(Cl)cc(Cl)c3cccnc23)CC1,inactive: -1.41%
7,CC(C)=N/N=C(\N)N[N+](=O)[O-],inactive: -0.286%
8,CN(C)C(=O)c1c([N+](=O)[O-])cc([N+](=O)[O-])cc1[N+](=O)[O-],inactive: 18.7%
9,CC(C)c1nc(Nc2ccccc2)n(P(=O)(N(C)C)N(C)C)n1,inactive: -6.49%
10,CN(C)C(=O)OCCc1n(C)cc[n+]1C,inactive: -9.19%
11,CCN(/C(=N/P(=O)(N1CCOCC1)N1CCOCC1)N1CCOCC1)c1ccc(OC)cc1,inactive: -9.38%
12,CP(=O)(Nc1ccc(Cl)cc1)Oc1ccc(F)cc1 (stereo not drawn),inactive: -8.56%
13,Nc1ccc([As](=O)(O)c2ccc(N)cc2)cc1,inactive: 6.62%
14,CC(C)(C)c1ccc(OP(C)(=O)O)cc1,inactive: -0.722%
15,COc1ccccc1OP(C)(=O)Nc1ccccc1Br (stereo not drawn),inactive: -5.99%
16,C[N+]1=C2C=CC=CC=C2SC12C([N+](=O)[O-])=CC([N+](=O)[O-])=C[C-]2[N+](=O)[O-] (stereo not drawn),inactive: 7.64%
17,CN(C)CCOC(=O)C(O)(c1ccccc1)C1CCCC1 (stereo not drawn),inactive: -5.88%
18,Clc1ccc(Cl)c(NC2=NCC(CBr)S2)c1 (stereo not drawn),inactive: -4.65%
19,CN1CCCC(OC(=O)C(c2ccccc2)c2ccccc2)C1 (stereo not drawn),inactive: -3.06%
20,COc1ccc(OP(C)(=O)Nc2ccccn2)cc1 (stereo not drawn),inactive: -14%
21,COc1ccccc1OP(=O)(Nc1ccc(C)cn1)Oc1ccccc1OC,inactive: -26.5%
22,Cc1ccc(OP(=O)(Nc2nccs2)Oc2ccc(C)cc2)cc1,inactive: 46%
23,COc1ccccc1OP(C)(=O)Nc1ccc(Br)cc1 (stereo not drawn),inactive: 9.78%

# Reference: PubChem BioAssay AID624415 (National Center for Advancing Translational Sciences (NCATS), 2012)
